Reference: PubChem BioAssay AID504761 (Drosophila RNAi Screening Center, 2011)
In all, the deposit lists about 22,000 reagents; shown is an unselected part of those that have a named target and a result. Over the whole deposit, 116 (0.52%) were called active. 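Calls depend on retest data that are not deposited; infection was ranked per plate without normalising between plates; the unit of the infection score is not given.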 Raw values vary from plate to plate and are shown uncorrected. A number with no mark means an inactive call. Names joined by + are all predicted targets of the reagent. The record does not give: the amount of reagent, the time to read-out.

Purpose: 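Insect host genes that dengue virus relies on to spread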 (primary screen)
System: D.Mel-2 cells from Drosophila
Knock-down reagent: long dsRNA against Drosophila genes
Conditions: infection with dengue virus type 2; dose and infection time not stated
Measured: 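Per well on two replicate plates, imaging gave the percent of cells positive for viral envelope protein, ranked by infection, and a nuclear count of cells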
Reading the numbers: infection score: higher = more virus-infected cells; cell count: higher = more cells in the well
Active means: 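Low infection ranks in the two replicates (chance level up to 0.065) followed by a retest with a 1.5-fold or larger significant decrease, p below 0.05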
Calls: active = confirmed: knock-down lowers infection; inactive = not picked or not confirmed

| gene knocked down | amplicon | infection score, replicate 1 | infection score, replicate 2 | cell count, replicate 1 | cell count, replicate 2 |
| --- | --- | --- | --- | --- | --- |
| Gr58a | DRSC03910 | 5.9 | 4.1 | 6250 | 5711 |
| CG14551 | DRSC14894 | 4.19 | 2.85 | 6299 | 6850 |
| CG12589 | DRSC12215 | 16.5 | 2.25 | 5921 | 7195 |
| CG42818 + Ca-Ma2d | DRSC01963 | 16.5 | 8.2 | 5696 | 6387 |
| CG42818 + Ca-Ma2d | DRSC29730 | 19.2 | 8.52 | 6534 | 6090 |
| scpr-A + scpr-C + scpr-B | DRSC15715 | 1.32 | 17.1 | 6680 | 5542 |
| CG9692 | DRSC11091 | 2.56 | 3.09 | 6183 | 6510 |
| CG11893 | DRSC14429 | 2.61 | 4.73 | 6663 | 6403 |
| CG11893 | DRSC29725 | 9.49 | 3.34 | 6005 | 6138 |
| CG13870 | DRSC06429 | 1.71 | 2.41 | 6074 | 5855 |
| Lar | DRSC01707 | 0.99 | 0.15 | 6284 | 6132 |
| Lar | DRSC03361 | 13 | 27.4 | 6476 | 5891 |
| CG7747 | DRSC07038 | 7.84 | 9.25 | 5891 | 5567 |
| CG7747 | DRSC26745 | 20.9 | 16.2 | 6175 | 5811 |
| CycB | DRSC04605 | 12 | 23.1 | 5853 | 6113 |
| CG7058 | DRSC20021 | 3.33 | 3.23 | 2372 | 5719 |
| CG7058 | DRSC25937 | 2.09 | 3.8 | 6369 | 6403 |
| CG12010 | DRSC08218 | 0.33 | 2.26 | 5741 | 6117 |
| Ir40a | DRSC03732 | 4.13 | 10.6 | 6557 | 6958 |
| Ir40a | DRSC03733 | 1.96 | 6.09 | 6993 | 6557 |
| CG33285 | DRSC11463 | 0.51 | 0.31 | 5939 | 4141 |
| CG33285 | DRSC26954 | 5.98 | 13.8 | 6523 | 6318 |
| CG17841 | DRSC17737 | 3.85 | 1.78 | 6604 | 6680 |
| CG17841 | DRSC28821 | 18.3 | 8.98 | 5706 | 6161 |
| Sap47 | DRSC16850 | 25.9 | 16.2 | 5698 | 5326 |
| Sap47 | DRSC27162 | 5.49 | 14.2 | 6480 | 6387 |
| SMC1 | DRSC16846 | 5.23 | 5.52 | 5828 | 6136 |
| EMC2B | DRSC15506 | 3.64 | 11.6 | 6078 | 5161 |
| Fcp3C | DRSC18665 | 0.93 | 3.12 | 6465 | 6191 |
| beta3GalTII | DRSC07253 | 7.29 | – | 7245 | 450 |
| beta3GalTII | DRSC29091 | 6.67 | 13.8 | 1019 | 6418 |
| l(2)k10201 | DRSC06439 | 14.6 | 2.33 | 5944 | 6947 |
| l(2)k10201 | DRSC07640 | 18.6 | 6.77 | 5906 | 6693 |
| CG15034 | DRSC17966 | 9.27 | 8.29 | 6030 | 6481 |
| alpha-Est4aPsi | DRSC12473 | 7.98 | 4.26 | 5578 | 5886 |
| Idh3g | DRSC15699 | 4.61 | 5.95 | 5861 | 2991 |
| Idh3g | DRSC26628 | 2.08 | 12.2 | 5826 | 4570 |
| w | DRSC18850 | 8.8 | 6.51 | 3464 | 4364 |
| w | DRSC30065 | 5.98 | 3.1 | 6272 | 6032 |

5 entries from above in another layout:
{"gene knocked down": "CG7747", "amplicon": "DRSC26745", "infection score, replicate 1": 20.9, "infection score, replicate 2": 16.2, "cell count, replicate 1": 6175, "cell count, replicate 2": 5811}
{"gene knocked down": "CycB", "amplicon": "DRSC04605", "infection score, replicate 1": 12, "infection score, replicate 2": 23.1, "cell count, replicate 1": 5853, "cell count, replicate 2": 6113}
{"gene knocked down": "CG7058", "amplicon": "DRSC20021", "infection score, replicate 1": 3.33, "infection score, replicate 2": 3.23, "cell count, replicate 1": 2372, "cell count, replicate 2": 5719}
{"gene knocked down": "CG7058", "amplicon": "DRSC25937", "infection score, replicate 1": 2.09, "infection score, replicate 2": 3.8, "cell count, replicate 1": 6369, "cell count, replicate 2": 6403}
{"gene knocked down": "CG12010", "amplicon": "DRSC08218", "infection score, replicate 1": 0.33, "infection score, replicate 2": 2.26, "cell count, replicate 1": 5741, "cell count, replicate 2": 6117}
